Results of unrelated studies side by side (data: NIAID ChemDB).

All rows: tests in culture; organism: HIV-1; cell line: CEM + CEM-SS; endpoint: EC50

Conditions beyond the fields shown may differ between rows. ECn: concentration that inhibits the pathogen or its effect by n%. Blank or dashed fields: not listed here.

| smiles | strain | changes | read by | result |
|---|---|---|---|---|
| CNc1ccc(S(=O)(=O)c2ccccc2[N+](=O)[O-])cc1Cl | IIIB | - | XTT | 0.1 µM |
| CCCc1cc(=O)oc2c3c(c4c(c12)OC(C)(C)C=C4)O[C@H](C)[C@@H](C)[C@@H]3O | IIIB | - | cytopathic effect / XTT | 0.2 µM |
| Cc1cn([C@H]2C[C@H](N=[N+]=[N-])[C@@H](CO)O2)c(=O)[nH]c1=O | SK1 | - | cytopathic effect / MTT | 0.004 µM |
| Cc1ccnc2c1NC(=O)c1cccnc1N2C1CC1 | 4XAZT+Y181C | - | cytopathic effect / XTT | 0.8 µM |
| CCc1c(Sc2ccccn2)n(COCc2ccccc2)c(=O)[nH]c1=O | NL4-3 | RT-K103N | cytopathic effect / XTT | 0.38 µM |
| Cc1cn([C@H]2C[C@H](N=[N+]=[N-])[C@@H](CO)O2)c(=O)[nH]c1=O | ED | - | cytopathic effect / XTT | 0.0003 µM |
| Cc1c(Sc2ccccc2)n(COCCO)c(=O)[nH]c1=O | IIIB | RT-Y181C | cytopathic effect / XTT | >325 µM |
| Fc1cccc(F)c1C1SCc2nc3ccccc3n21 | UC38-R(RT-Y181C | RT-Y181C | cytopathic effect / XTT | 4.7 µM |
| CNc1ccc(Cl)cc1S(=O)(=O)c1ccccc1[N+](=O)[O-] | E BPTU-resistant | - | XTT | >61 µM |
| Cc1ccnc2c1NC(=O)c1cccnc1N2C1CC1 | NL4-3 | RT-Y181C | cytopathic effect / XTT | 1.3 µM |
| O=S1(c2ccccc2)=NC(=S)Nc2ccccc21 | IIIB | - | cytopathic effect / XTT | 3.28 µM |
| CCCc1cc(=O)oc2c3c(c4c(c12)OC(C)(C)C=C4)O[C@@H](C)[C@H](C)[C@@H]3O | NL4-3 | RT-Y188C | XTT | 1.7 µM |
| Fc1cccc(F)c1C1SCc2nc3ccccc3n21 | SK1 | - | cytopathic effect / XTT | 0.2 µM |
| Cc1occc1C(=S)Nc1ccc(Cl)c(/C=N/OC(C)(C)C)c1 | Diphenyl sulfone-resistant (RT-Y181C) | RT-Y181C | cytopathic effect / XTT | 1.1 µM |
| CCCc1cc(=O)oc2c3c(c4c(c12)OC(C)(C)C=C4)O[C@H](C)[C@@H](C)[C@@H]3O | Diphenyl sulfone-resistant (RT-Y181C) | RT-Y181C | XTT | 0.08 µM |
| O=C1Nc2ccccc2S(=O)(=O)N1 | IIIB | - | cytopathic effect / XTT | >1260 µM |
| Cc1cn([C@H]2C[C@H](N=[N+]=[N-])[C@@H](CO)O2)c(=O)[nH]c1=O | G | - | cytopathic effect / XTT | 0.008 µM |
| CC(=O)c1ccc(C)cc1NC(C(N)=O)c1c(Cl)cccc1Cl | IIIB | - | XTT | 0.03 µM |
| Cc1cn([C@H]2C[C@H](N=[N+]=[N-])[C@@H](CO)O2)c(=O)[nH]c1=O | NL4-3 | RT-V179D | cytopathic effect / XTT | 0.005 µM |
| CN1N=C(N)c2cn([C@@H]3O[C@H](COP(=O)(O)O)[C@@H](O)[C@H]3O)c3ncnc1c23 | ED | - | XTT | >2.8 µM |
| C/C=C/CSc1cc(NC(=S)c2ccsc2C)ccc1Cl | NL4-3 (RT L74V) | RT-L74V | cytopathic effect / XTT | 0.02 µM |
| O=[N+]([O-])c1ccccc1S(=O)(=O)c1cccc2c1NCCC2 | IIIB | - | XTT | 3 µM |
| Cc1ccnc2c1NC(=O)c1cccnc1N2C1CC1 | NL4-3 | RT-V108I | XTT | 0.06 µM |
| Cc1ccnc2c1NC(=O)c1cccnc1N2C1CC1 | IIIB | - | cytopathic effect / XTT | 0.01 µM |
| CC(C)(C)NC(=O)[C@@H]1C[C@@H]2CCCC[C@@H]2CN1C[C@@H](O)[C@H](Cc1ccccc1)NC(=O)[C@H](CC(N)=O)NC(=O)c1ccc2ccccc2n1 | RF2803 WT | - | plaque count | 0.003 µM |
| CCc1c(Sc2ccccn2)n(COCc2ccccc2)c(=O)[nH]c1=O | UC040-R (RT-Y181C) | RT-Y181C | cytopathic effect / XTT | 2.2 µM |
| CCCCCCCCCCCCSCC(COP(=O)([O-])OCC[N+](C)(C)C)OCCCCCCCCC(=O)OCC(=O)OC[C@H]1O[C@@H](n2cc(C)c(=O)[nH]c2=O)C[C@@H]1N=[N+]=[N-] | LAI-XXBRU WT | - | plaque count | 0.05 µM |
| Cc1cn([C@H]2C[C@H](N=[N+]=[N-])[C@@H](CO)O2)c(=O)[nH]c1=O | NL4-3 | RT-A98G | XTT | 0.01 µM |
| Cc1cn([C@H]2C[C@H](N=[N+]=[N-])[C@@H](CO)O2)c(=O)[nH]c1=O | Clinical isolate H112-2 pre-AZT | - | plaque count | 0.0005 µM |
| CCc1c(C(=O)c2cc(C)cc(C)c2)n(CC2CC=CC2)c(=O)[nH]c1=O | 4XAZT/L100I (RT D67N K70R L100I T215Y K219Q) | RT-D67N K70R L100I T215Y K219Q | cytopathic effect / XTT | 0.0001 µM |

A second listing of 2 rows from above:

smiles | strain | changes | read by | result
Cc1ccnc2c1NC(=O)c1cccnc1N2C1CC1 | NL4-3 | RT-Y181C | cytopathic effect / XTT | 1.3 µM
CC(=O)c1ccc(C)cc1NC(C(N)=O)c1c(Cl)cccc1Cl | IIIB | - | XTT | 0.03 µM